Values quoted from earlier work as cited in patent US20250327138A1, “METHODS AND COMPOSITIONS FOR DETECTING GUANITOXIN PRODUCING BACTERIA” (published 2025).

Key:
[1] = i.p.

Q: For “(5S)-5-[(dimethylamino)methyl]-1-[hydroxy(methoxy)phosphoryl]oxy)-4,5-dihydro-1H-imidazol-2-amine”, which “inhibition of acetylcholinesterase (mechanism)” value (acetylcholinesterase) is on record?
A: The value was “irreversible inhibitor”.

Q: What about the LD50 [1] of the same substance?
A: The LD50 was 0.02 mg/kg.
